RC index of single-base changes in HIV-1 Vpr

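Seven fragments of pNL4-3 were mutated by error-prone PCR, and each virus pool was passaged in CEM T cells. Sequencing gave the RC index: frequency after two rounds over frequency in the input plasmid.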

Protein: Vpr of HIV-1 NL4-3, numbered from its first residue. The source prints no sequence; the chain below is taken from UniProt P12520, a closely related isolate, and fits the source at the 71 positions it covers.
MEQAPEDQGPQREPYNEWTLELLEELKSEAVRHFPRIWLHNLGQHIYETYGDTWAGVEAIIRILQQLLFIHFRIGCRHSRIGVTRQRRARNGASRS
"Other frame" gives the effect on an overlapping gene as the source lists it; other overlaps (genes, RNA elements) are not shown.

Values are the RC index; higher means better tolerated. The authors read about 0.1 or less as lethal, 0.1-0.2 as attenuated and 0.2 or more as tolerated. Each entry names the wild-type residue, its position and the residue put in its place. Input reads are the counts in the plasmid library. An index over 1, which the authors read as above wild type, was rare (1.9% of all changes in the genome). Base changes are numbered along pNL4-3. Since each clone held several changes (about five per kb), neutral changes can read low.

substitution | base | other frame | input reads | RC
I70T | T5767C | none | 158 | 0.115
H71N | C5769A | none | 92 | 0.393
H71L | A5770T | none | 276 | 0.0983
F72L | T5772C | none | 355 | 0.127
R73S | A5777T | none | 204 | 0.0710
I74V | A5778G | none | 217 | 0.0500
I74T | T5779C | none | 253 | 0.129
G75R | G5781C | none | 48 | 0.113
G75W | G5781T | none | 160 | 0.305
G75A | G5782C | none | 67 | 0.108
C76Y | G5785A | none | 266 | 0.367
C76F | G5785T | none | 38 | 0.381
H78D | C5790G | none | 49 | 0.111
H78R | A5791G | none | 215 | 0.0673
H78L | A5791T | none | 420 | 0.371
H78Q | T5792A | none | 290 | 0.480
S79C | A5793T | none | 241 | 0.0300
S79N | G5794A | none | 288 | 0.189
S79T | G5794C | none | 96 | 0.0754
S79R | C5795A | none | 70 | 0.103
R80K | G5797A | none | 228 | 0.278
R80I | G5797T | none | 261 | 0.146
I81V | A5799G | none | 199 | 0.0546
I81L | A5799T | none | 364 | 0.0348
I81K | T5800A | none | 204 | 0.0266
I81T | T5800C | none | 230 | 0.496
G82S | G5802A | none | 177 | 0.409
G82V | G5803T | none | 80 | 0.0679
V83A | T5806C | none | 360 | 0.111
T84A | A5808G | none | 200 | 0.0995
T84N | C5809A | none | 108 | 0.134
T84I | C5809T | none | 116 | 0.484
R85Q | G5812A | none | 227 | 0.399
Q86K | C5814A | none | 81 | 0.0894
Q86R | A5815G | none | 424 | 0.0683
R87W | A5817T | none | 200 | 0.362
R87T | G5818C | none | 70 | 0.0776
R87M | G5818T | none | 267 | 0.0949
R88G | A5820G | none | 395 | 0.238
R88S | A5822T | none | 290 | 1.29
A89T | G5823A | none | 465 | 0.253
A89P | G5823C | none | 100 | 0.145
A89S | G5823T | none | 114 | 0.175
A89G | C5824G | none | 39 | 0.557
R90G | A5826G | none | 532 | 0.252
R90S | A5828T | none | 314 | 0.0576
N91D | A5829G | none | 377 | 0.115
S94R | A5838C | Tat silent | 71 | 0.637
S94C | A5838T | Tat silent | 593 | 0.513
R95G | A5841G | Tat silent | 194 | 0.149

4 of these entries, quoted again:

T84N (base C5809A, input reads 108) gave 0.134.
R80I (base G5797T, input reads 261) gave 0.146.
A89G (base C5824G, input reads 39) gave 0.557.
I81T (base T5800C, input reads 230) gave 0.496.

Reference: Al-Mawsawi et al. 2014, doi:10.1186/s12977-014-0124-6.